From article PMC10715191, “Exploration of the novel fluoroquinolones with high inhibitory effect against quinolone-resistant DNA gyrase of Salmonella Typhimurium” (Microbiology Spectrum, 2023)

Chains of the proteins cited; added tags and fusions are not shown.
UniProt P37411, whole entry S83Y: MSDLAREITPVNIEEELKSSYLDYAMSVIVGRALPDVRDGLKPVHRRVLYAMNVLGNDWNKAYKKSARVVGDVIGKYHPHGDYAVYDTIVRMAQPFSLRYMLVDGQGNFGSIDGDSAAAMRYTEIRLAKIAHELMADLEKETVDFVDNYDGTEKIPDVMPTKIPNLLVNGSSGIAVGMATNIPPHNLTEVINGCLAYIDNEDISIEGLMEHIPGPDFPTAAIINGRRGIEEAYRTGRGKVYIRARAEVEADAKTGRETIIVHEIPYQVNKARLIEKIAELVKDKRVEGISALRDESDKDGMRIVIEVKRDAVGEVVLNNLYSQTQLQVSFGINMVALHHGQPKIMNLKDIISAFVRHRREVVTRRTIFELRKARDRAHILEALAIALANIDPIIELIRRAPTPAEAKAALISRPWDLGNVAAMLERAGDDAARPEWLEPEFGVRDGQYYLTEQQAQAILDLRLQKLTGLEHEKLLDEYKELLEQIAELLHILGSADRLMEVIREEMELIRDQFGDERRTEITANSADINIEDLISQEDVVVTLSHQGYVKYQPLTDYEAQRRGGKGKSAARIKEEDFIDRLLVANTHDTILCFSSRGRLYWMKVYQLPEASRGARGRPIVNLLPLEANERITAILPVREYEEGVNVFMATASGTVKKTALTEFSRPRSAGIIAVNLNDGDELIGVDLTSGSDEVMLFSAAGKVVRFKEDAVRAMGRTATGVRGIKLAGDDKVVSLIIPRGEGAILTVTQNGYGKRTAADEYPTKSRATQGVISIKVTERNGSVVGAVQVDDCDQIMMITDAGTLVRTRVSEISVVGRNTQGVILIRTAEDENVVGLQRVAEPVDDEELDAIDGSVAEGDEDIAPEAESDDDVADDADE
UniProt P37411, whole entry S83I: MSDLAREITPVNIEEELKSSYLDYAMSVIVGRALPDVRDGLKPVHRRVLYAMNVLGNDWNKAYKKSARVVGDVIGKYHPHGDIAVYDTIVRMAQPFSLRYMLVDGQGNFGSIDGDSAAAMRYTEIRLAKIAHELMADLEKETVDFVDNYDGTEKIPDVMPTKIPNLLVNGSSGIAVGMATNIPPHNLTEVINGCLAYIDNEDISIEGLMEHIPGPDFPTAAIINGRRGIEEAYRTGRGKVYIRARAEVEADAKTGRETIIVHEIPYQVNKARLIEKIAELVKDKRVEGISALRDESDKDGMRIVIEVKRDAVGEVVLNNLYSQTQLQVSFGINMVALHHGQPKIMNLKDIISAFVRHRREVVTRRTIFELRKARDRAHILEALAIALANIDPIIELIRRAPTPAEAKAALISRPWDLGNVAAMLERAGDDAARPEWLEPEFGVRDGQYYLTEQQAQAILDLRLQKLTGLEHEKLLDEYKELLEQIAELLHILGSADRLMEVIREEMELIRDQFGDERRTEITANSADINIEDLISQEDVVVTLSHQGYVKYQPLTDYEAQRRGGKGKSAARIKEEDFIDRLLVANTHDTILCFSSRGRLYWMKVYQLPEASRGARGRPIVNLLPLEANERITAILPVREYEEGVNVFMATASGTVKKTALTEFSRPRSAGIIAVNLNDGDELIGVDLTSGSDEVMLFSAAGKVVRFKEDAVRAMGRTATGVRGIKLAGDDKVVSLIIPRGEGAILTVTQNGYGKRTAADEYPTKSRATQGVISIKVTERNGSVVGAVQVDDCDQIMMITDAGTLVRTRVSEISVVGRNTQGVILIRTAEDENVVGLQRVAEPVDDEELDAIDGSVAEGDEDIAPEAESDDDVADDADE
UniProt P37411, whole entry S83F: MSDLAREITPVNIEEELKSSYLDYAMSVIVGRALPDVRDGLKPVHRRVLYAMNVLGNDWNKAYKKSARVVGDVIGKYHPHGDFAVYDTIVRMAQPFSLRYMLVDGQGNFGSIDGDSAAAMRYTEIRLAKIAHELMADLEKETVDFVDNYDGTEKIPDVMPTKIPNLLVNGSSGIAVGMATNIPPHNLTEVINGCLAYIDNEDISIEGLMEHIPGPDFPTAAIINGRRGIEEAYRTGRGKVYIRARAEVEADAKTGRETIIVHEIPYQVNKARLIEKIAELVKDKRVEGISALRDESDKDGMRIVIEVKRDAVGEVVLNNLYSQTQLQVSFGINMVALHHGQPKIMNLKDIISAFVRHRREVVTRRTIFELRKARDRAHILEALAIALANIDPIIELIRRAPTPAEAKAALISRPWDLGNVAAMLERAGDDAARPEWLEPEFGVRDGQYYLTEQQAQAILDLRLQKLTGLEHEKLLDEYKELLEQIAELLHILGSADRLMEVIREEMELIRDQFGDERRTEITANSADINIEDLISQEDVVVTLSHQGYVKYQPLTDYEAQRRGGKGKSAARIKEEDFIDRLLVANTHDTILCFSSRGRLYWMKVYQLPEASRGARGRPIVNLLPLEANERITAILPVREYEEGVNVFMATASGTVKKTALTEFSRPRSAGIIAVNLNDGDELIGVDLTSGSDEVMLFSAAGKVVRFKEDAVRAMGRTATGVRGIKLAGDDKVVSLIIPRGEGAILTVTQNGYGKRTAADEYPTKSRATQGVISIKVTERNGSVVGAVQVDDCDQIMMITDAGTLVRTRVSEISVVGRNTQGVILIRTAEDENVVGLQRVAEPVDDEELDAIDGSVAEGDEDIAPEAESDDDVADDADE
UniProt P37411, whole entry D87N: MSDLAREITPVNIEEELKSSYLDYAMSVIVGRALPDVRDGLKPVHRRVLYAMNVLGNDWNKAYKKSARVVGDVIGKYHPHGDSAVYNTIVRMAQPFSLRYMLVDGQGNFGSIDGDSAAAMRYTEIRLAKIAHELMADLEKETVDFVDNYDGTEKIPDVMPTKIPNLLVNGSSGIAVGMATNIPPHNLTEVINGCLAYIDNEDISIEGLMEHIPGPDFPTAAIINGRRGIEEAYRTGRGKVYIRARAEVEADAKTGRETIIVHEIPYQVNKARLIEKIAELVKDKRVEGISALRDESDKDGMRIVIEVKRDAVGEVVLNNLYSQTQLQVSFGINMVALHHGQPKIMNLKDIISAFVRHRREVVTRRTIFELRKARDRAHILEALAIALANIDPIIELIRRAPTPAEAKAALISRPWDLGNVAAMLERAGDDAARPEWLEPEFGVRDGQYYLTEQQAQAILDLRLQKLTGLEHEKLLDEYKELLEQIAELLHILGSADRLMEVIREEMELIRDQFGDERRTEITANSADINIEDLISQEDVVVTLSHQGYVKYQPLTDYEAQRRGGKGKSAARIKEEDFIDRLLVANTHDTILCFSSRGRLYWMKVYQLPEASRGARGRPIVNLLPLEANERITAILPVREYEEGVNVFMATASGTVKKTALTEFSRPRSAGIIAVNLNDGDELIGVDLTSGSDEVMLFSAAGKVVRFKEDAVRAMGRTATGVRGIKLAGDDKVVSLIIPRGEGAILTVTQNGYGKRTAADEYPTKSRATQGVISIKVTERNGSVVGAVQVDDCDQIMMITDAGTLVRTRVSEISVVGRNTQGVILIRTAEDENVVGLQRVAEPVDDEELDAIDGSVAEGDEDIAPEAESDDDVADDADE
UniProt P37411, whole entry S83F/D87N: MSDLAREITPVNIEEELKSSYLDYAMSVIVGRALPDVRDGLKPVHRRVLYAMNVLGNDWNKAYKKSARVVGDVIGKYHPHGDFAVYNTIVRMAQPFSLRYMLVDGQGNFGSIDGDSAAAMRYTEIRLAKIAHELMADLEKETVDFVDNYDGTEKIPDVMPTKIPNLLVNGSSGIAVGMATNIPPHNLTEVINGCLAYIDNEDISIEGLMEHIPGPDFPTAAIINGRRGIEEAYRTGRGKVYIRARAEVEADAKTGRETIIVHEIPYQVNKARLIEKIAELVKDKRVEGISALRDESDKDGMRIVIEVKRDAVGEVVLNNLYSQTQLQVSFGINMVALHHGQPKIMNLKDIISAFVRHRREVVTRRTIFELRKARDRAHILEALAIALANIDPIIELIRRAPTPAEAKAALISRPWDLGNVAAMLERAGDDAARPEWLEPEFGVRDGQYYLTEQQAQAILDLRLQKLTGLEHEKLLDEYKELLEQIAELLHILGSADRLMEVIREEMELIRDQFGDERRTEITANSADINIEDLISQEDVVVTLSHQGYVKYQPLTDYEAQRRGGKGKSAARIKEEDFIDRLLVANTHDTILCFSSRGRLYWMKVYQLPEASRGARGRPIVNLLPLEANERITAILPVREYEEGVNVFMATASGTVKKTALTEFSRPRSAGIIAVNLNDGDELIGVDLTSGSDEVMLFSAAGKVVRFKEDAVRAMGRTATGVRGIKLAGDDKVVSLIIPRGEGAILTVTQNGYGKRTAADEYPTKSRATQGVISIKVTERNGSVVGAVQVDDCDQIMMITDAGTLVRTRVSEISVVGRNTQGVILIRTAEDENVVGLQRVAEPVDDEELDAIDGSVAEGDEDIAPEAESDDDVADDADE
UniProt P37411, whole entry D87G: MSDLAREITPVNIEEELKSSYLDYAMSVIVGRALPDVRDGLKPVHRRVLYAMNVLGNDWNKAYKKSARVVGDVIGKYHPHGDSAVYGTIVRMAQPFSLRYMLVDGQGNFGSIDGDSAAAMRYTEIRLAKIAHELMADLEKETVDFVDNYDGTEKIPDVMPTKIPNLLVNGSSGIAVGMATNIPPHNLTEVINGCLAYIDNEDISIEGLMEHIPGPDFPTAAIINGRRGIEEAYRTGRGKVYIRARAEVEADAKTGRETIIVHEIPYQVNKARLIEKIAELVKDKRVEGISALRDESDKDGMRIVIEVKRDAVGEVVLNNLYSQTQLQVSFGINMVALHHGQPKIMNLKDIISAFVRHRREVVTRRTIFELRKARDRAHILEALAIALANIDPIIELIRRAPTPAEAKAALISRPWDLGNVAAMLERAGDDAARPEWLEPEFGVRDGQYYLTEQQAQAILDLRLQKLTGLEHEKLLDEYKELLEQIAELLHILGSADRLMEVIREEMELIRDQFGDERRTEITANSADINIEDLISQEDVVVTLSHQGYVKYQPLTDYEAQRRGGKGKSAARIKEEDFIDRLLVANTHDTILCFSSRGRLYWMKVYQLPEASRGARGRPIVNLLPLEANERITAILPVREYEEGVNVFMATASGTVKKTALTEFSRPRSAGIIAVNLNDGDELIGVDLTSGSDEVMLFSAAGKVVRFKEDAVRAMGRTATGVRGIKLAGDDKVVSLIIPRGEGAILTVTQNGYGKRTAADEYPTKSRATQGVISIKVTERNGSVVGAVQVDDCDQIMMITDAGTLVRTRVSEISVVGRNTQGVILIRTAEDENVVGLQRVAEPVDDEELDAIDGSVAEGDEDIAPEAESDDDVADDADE
UniProt P37411, whole entry D87Y: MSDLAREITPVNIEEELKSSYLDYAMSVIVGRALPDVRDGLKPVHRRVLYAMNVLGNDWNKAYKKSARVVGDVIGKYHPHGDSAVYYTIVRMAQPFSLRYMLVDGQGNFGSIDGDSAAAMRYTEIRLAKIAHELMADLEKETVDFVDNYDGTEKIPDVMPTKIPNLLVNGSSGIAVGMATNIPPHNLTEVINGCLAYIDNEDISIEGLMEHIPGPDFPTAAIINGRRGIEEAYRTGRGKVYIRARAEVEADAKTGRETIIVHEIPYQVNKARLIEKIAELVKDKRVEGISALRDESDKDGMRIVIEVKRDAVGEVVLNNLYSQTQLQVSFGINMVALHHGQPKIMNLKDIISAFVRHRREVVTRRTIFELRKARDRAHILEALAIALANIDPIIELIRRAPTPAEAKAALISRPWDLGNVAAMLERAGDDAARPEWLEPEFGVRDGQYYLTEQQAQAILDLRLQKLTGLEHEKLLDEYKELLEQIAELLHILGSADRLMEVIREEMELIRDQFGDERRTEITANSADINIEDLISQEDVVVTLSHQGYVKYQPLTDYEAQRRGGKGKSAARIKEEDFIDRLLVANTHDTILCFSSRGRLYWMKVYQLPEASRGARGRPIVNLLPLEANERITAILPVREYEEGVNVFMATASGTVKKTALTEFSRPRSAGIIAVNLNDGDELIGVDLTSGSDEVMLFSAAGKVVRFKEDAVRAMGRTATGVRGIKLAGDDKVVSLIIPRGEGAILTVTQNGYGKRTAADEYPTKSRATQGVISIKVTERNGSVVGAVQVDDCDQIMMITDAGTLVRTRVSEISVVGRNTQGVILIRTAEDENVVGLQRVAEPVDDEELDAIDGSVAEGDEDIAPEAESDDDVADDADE

Experiments:
Format in all cases: biochemical
[1] = molecular target: T1, Ser83Tyr mutant S. Typhimurium DNA gyrase (Salmonella typhimurium, UniProt P0A2I3+P37411, S83Y); experiment: Fluoroquinolone-inhibited DNA supercoiling assay, GyrA Ser83Tyr DNA gyrase; settings: read-out: IC50s ± SD, Ser83Tyr (converted)
T1 construct: made in house; host or cells: Escherichia coli BL21(DE3)
Source text: (§1) Recombinant DNA gyrase was obtained as separate subunits, GyrA and GyrB. In total, plasmids encoding nine subunits including WT GyrA and GyrB as well as seven GyrA with amino acid substitutions (Ser83Phe, Ser83Ile, Ser83Tyr, Asp87Gly, Asp87Asn, Asp87Tyr, and […]) in the quinolone resistance determining region were constructed as described in our previous study ([38]). These plasmids were introduced into Escherichia coli BL21(DE3) (Merck KGaA, Darmstadt, Germany), and protein expression was induced in the bacterial cells. A transformed E. coli was inoculated into Luria-Bertani broth supplemented with ampicillin (50 mg/L) and incubated at 37°C until the optical density value reached 0.60. Expression of GyrA and GyrB was induced by adding 1 mM isopropyl beta-D-1-thiogalactopyranoside (Wako Pure Chemical Industries Ltd, Osaka, Japan) followed by incubation at 16°C for 40 h (for GyrA), or 18°C for 13 h (for GyrB). […] The protein purity was assessed by sodium dodecyl sulfate-polyacrylamide gel electrophoresis (SDS-PAGE) (ATTO, Tokyo, Japan) as shown in Fig. 7.
(§2) […]. […] The amount of supercoiled DNA was quantified by its intensity using ImageJ, the digital image processing software (https://imagej.nih.gov/ij/download.html). […]

[2] = molecular target: T2, Ser83Ile mutant S. Typhimurium DNA gyrase (Salmonella typhimurium, UniProt P0A2I3+P37411, S83I); experiment: Fluoroquinolone-inhibited DNA supercoiling assay, GyrA Ser83Ile DNA gyrase; settings: read-out: IC50s ± SD, Ser83Ile (converted)
T2 construct: made in house; host or cells: Escherichia coli BL21(DE3)
Source text: as §1, §2

[3] = molecular target: T3, Ser83Phe mutant S. Typhimurium DNA gyrase (Salmonella typhimurium, UniProt P0A2I3+P37411, S83F); experiment: Fluoroquinolone-inhibited DNA supercoiling assay, GyrA Ser83Phe DNA gyrase; settings: read-out: IC50s ± SD, Ser83Phe (converted)
T3 construct: made in house; host or cells: Escherichia coli BL21(DE3)
Source text: as §1, §2

[4] = molecular target: T4, Asp87Asn mutant S. Typhimurium DNA gyrase (Salmonella typhimurium, UniProt P0A2I3+P37411, D87N); experiment: Fluoroquinolone-inhibited DNA supercoiling assay, GyrA Asp87Asn DNA gyrase; settings: read-out: IC50s ± SD, Ap87Asn (converted)
T4 construct: made in house; host or cells: Escherichia coli BL21(DE3)
Source text: as §1, §2

[5] = molecular target: T5, Ser83Phe-Asp87Asn double-mutant S. Typhimurium DNA gyrase (Salmonella typhimurium, UniProt P0A2I3+P37411, D87N/S83F); experiment: Fluoroquinolone-inhibited DNA supercoiling assay, GyrA Ser83Phe-Asp87Asn DNA gyrase; settings: read-out: IC50s ± SD, Ser83Phe-Asp87Asn (converted)
T5 construct: made in house; host or cells: Escherichia coli BL21(DE3)
Source text: as §1, §2

[6] = molecular target: T6, Asp87Gly mutant S. Typhimurium DNA gyrase (Salmonella typhimurium, UniProt P0A2I3+P37411, D87G); experiment: Fluoroquinolone-inhibited DNA supercoiling assay, GyrA Asp87Gly DNA gyrase
T6 construct: made in house; host or cells: Escherichia coli BL21(DE3)
Source text: as §1, §2

[7] = molecular target: T7, Asp87Tyr mutant S. Typhimurium DNA gyrase (Salmonella typhimurium, UniProt P0A2I3+P37411, D87Y); experiment: Fluoroquinolone-inhibited DNA supercoiling assay, GyrA Asp87Tyr DNA gyrase
T7 construct: made in house; host or cells: Escherichia coli BL21(DE3)
Source text: as §1, §2

`O=C(O)c1cn(C2CC2)c2cc(N3CCNCC3)c(F)cc2c1=O` [Ciprofloxacin] was tested, and the IC50 [1] was 3.68 µM, the IC50 [2] was 16.6 µM and the IC50 [3] was 1.38 µM. The IC50 [4] was 5.05 µM, the IC50 [5] was 1580 µM and the IC50 [6] was 1.9 µM. For the same compound, the IC50 [7] was 2.02 µM.
